The supplement of paper PMC9931576
Human monoclonal antibodies against the spike receptor-binding domain (heavy:light variable regions). IC50 against pseudoviruses bearing the spike of naturally observed variants; lower = stronger; >10 µg/ml means not reached at the top dose. No active / inactive call. The stated detection limit is 0.0005 µg/ml; values near or below 0.001 µg/ml lie at the floor of the assay.

B1: BD58-0412 (protein)
chain 1: EVQLVESGGGVVQPGGSLRLSCAASGFTFDDYAMHWVRQAPVKGLEWVSLISGDGGSTYYADSVKGRFTISRDNSKNSLYLQMNSLRTEDTALYYCAKDGYSDSSGYPNWFDPWGQGTLVTVSS
chain 2: EIVLTQSPGTLSLSPGERATLSCRASQSVSSSFLAWYQQKPGQAPRLLIYAASSRATGIPDKFSGSGSGTDFTLTISRLEPEDFAVYYCQQYGSSPYTFGQGTKLEIK
B2: BD58-0408 (protein)
chain 1: EVQLVESGGGLVQPGGSLRLSCAVSGFTVSNNYMSWVRQAPGKGLEWVSIIYSGGSTFYADSVKGRFTISRDNSKNTLYLQMNSLRAEDTAVYYCAREIVDQHWGQGTLVTVSS
chain 2: DIQMTQSPSSLSASVGDRVTITCQASQDINNYLNWYQQKAGKAPKLLIYDASNLKTGVPSRFSGSGSGTDFTLTISSLQPEDIATYYCQQYDNLPPWTFGQGTKLEIK
B3: BD58-0403 (protein)
chain 1: EVQLVQSGAEVKKPGESLKISCKGSGYSFTSYWIGWVRQMPGKGLEWMGIIYPGGSETRYSPSFQGQVTISADTSISTAYLQWSSLKASDTAMYYCARPRSEIWFGETNGFDSWGQGTLVTVSS
chain 2: DIQMTQSPSSLSASVGDRVTITCRASQGISNSLAWYQQKPGKAPKLLLYTASRLESGVPSRFSGSGSGTDYTLTISSLQPEDFATYYCQQYYNTLETFGQGTRLEIK
B4: BD56-275 (protein)
chain 1: QVQLVQSGAEVKKPGSSVKVSCKASGGTFSNYAINWVRQAPGQGLEWMGGIIPIFDRTNYAQKFQGRVAITAHESTSTAYLELSSLRSGDTAVYYCARAPLLEVLYMWGHFDSWGQGTLVTVSS
chain 2: DIVMTQSPDSLAVSLGERATINCKSSQSVLYSSNNKNYLAWYQQKPGQPPKLLIYWASTRESGVPDRFSGSGSGTDFTLAISSLQAEDVAVYYCQQYYNTPFTFGPGTKVDIK
B5: BD58-0404 (protein)
chain 1: EVHLVESGGGLVQPGGSLRLSCSASGFTFSSFAMHWVRQAPGKGLQYVSAISSNGGNTYYADSVKGRFTISRDNSKNTLYLQMSSLRAEDTAVYYCVKDLLWFGDHRWFDPWGQGTLVTVSS
chain 2: NFMLTQPHSVSESPGKTVTISCTRSSGSIASNYVQWYQQRPGSAPTTVIYEDNQRPSGVPDRFSGSIDSSSNSASLTISGLKTEDEADYYCQSYDITSWVFGGGTKLTVL

How the values were obtained:
Assay in all cases: pseudovirus neutralization IC50; higher = weaker neutralization
[1] = molecular target: SARS-CoV-2 Omicron BA.1 spike pseudovirus
Procedure: (§1)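 Single-round VSV luciferase pseudovirus mixed with antibody dilutions for 1 h and put on Huh-7 cells for about a day; IC50 from the dose curve.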

[2] = molecular target: SARS-CoV-2 Omicron BA.2 spike pseudovirus
Procedure: as §1

[3] = molecular target: SARS-CoV-2 Omicron BA.2.75 spike pseudovirus
Procedure: as §1

[4] = molecular target: SARS-CoV-2 Omicron BA.2.75.2 spike pseudovirus
Procedure: as §1

[5] = molecular target: SARS-CoV-2 Omicron BA.5 spike pseudovirus
Procedure: as §1

[6] = molecular target: SARS-CoV-2 Omicron BM.1.1.1 spike pseudovirus
Procedure: as §1

[7] = molecular target: SARS-CoV-2 Omicron BQ.1.1 spike pseudovirus
Procedure: as §1

[8] = molecular target: SARS-CoV-2 Omicron BR.2 spike pseudovirus
Procedure: as §1

[9] = molecular target: SARS-CoV-2 Omicron CA.1 spike pseudovirus
Procedure: as §1

[10] = molecular target: SARS-CoV-2 Omicron XBB spike pseudovirus
Procedure: as §1

[11] = molecular target: SARS-CoV-2 early D614G spike pseudovirus
Procedure: as §1

Row | Binder | pseudovirus neutralization IC50 [1] [µg/mL] | pseudovirus neutralization IC50 [2] [µg/mL] | pseudovirus neutralization IC50 [3] [µg/mL] | pseudovirus neutralization IC50 [4] [µg/mL] | pseudovirus neutralization IC50 [5] [µg/mL] | pseudovirus neutralization IC50 [6] [µg/mL] | pseudovirus neutralization IC50 [7] [µg/mL] | pseudovirus neutralization IC50 [8] [µg/mL] | pseudovirus neutralization IC50 [9] [µg/mL] | pseudovirus neutralization IC50 [10] [µg/mL] | pseudovirus neutralization IC50 [11] [µg/mL]
1 | B1 | 0.00135 | 0.0007 | 0.354 | > 10 | 1.3 | > 10 | > 10 | > 10 | > 10 | > 10 | > 10
2 | B2 | 0.182 | 0.00599 | > 10 | > 10 | > 10 | > 10 | > 10 | > 10 | > 10 | > 10 | > 10
3 | B3 | 0.0213 | 0.00515 | 0.621 | > 10 | > 10 | > 10 | > 10 | > 10 | > 10 | > 10 | > 10
4 | B4 | 0.162 | 0.39 | > 10 | > 10 | > 10 | > 10 | > 10 | > 10 | > 10 | > 10 | > 10
5 | B5 | > 10 | 3.62 | 5.45 | 1.83 | 3.48 | > 10 | > 10 | > 10 | > 10 | > 10 | > 10
